A mixed list of measured activities; the numbers were collected in NIAID ChemDB.

All rows: growth or infection tests; agent: HIV-1; method: p24; read-out: EC50

a–b is a range or a potency band. ECn is the concentration giving n% inhibition of infection, replication or growth. Neighbouring rows are from separate reports. Blank or dashed fields: not listed here.

{"compound": "CCN1c2ncc(CCOc3ccc(-c4cc(C(=O)O)ccc4C)cc3C)cc2C(=O)N(C)c2cccnc21", "cells": "C8166", "mutations": "RT-K103N Y181C", "value": "0.01–0.05 µM"}
{"compound": "COc1ccc2c(c1)C1=C(CC2)C(=O)NCCN1CCCC(C)C", "cells": "OM-10.1", "value": "1.4 µM"}
{"compound": "N#Cc1cc(Cl)cc(Oc2cc(Cl)cc(OCC(=O)NCC3CCS(=O)(=O)C3)c2)c1", "cells": "MT-4", "value": "<20 µM"}
{"compound": "CC(C)C1=C2[C@H]3CC[C@@H]4[C@@]5(C)CC[C@H](OC(=O)C6C[C@@H](C(=O)O)C6(C)C)C(C)(C)[C@@H]5CC[C@@]4(C)[C@]3(C)CC[C@@]2(NC(=O)C(C)(C)NC(=O)c2cnccn2)CC1=O", "cells": "MT-4", "strain or isolate": "NL4-3", "value": "<0.005 µM"}
{"compound": "C=C(C)CN1CCNC(=O)c2sc3ccc(F)cc3c21", "cells": "OM-10.1", "value": "0.005 µM"}
{"compound": "CC(C)C1=C2[C@H]3CC[C@@H]4[C@@]5(C)CC[C@H](OC(=O)C6C[C@@H](C(=O)O)C6(C)C)C(C)(C)[C@@H]5CC[C@@]4(C)[C@]3(C)CC[C@@]2(NC(=O)C(C)(C)NC(=O)c2nccn2C)CC1=O", "cells": "MT-4", "mutations": "V7A", "strain or isolate": "NL4-3", "value": ">0.05 µM"}
{"compound": "C=CCOC(=O)N[C@@H](Cc1ccccc1)[C@H](O)CN(CC(C)C)S(=O)(=O)c1ccc(F)cc1", "cells": "CEM", "strain or isolate": "IIIB", "value": "<10 µM"}
{"compound": "N#Cc1cc(Cl)cc(Oc2cc(CCc3[nH]nc4ncccc34)ccc2Cl)c1", "cells": "MT-4", "value": "<20 µM"}
{"compound": "CCOC(=O)N[C@@H](Cc1ccccc1)[C@H](O)CN(CC(C)C)S(=O)(=O)c1ccc(F)cc1", "cells": "CEM", "strain or isolate": "IIIB", "value": "<10 µM"}
{"compound": "C/C=C/CSc1cc(NC(=S)c2ccsc2C)ccc1Cl", "cells": "CEM + CEM-SS", "mutations": "RT-L74V", "strain or isolate": "NL4-3", "value": "0.07 µM"}
{"compound": "CC(C)CN(C[C@@H](O)[C@H](Cc1ccccc1)NC(=O)OCc1ccccc1)S(=O)(=O)c1ccc(F)cc1", "cells": "CEM", "strain or isolate": "IIIB", "value": "<10 µM"}
{"compound": "COc1ccc2sc3c(c2c1)N(Cc1cccc(C)c1)CCNC3=O", "cells": "OM-10.1", "value": "<0.04 µM"}
{"compound": "CN(C)C(=O)CC1Cn2c(c(O)c(=O)n(C3CCCC3)c2=O)C(=O)N1Cc1ccc(F)cc1", "cells": "MT-4", "value": "<10 µM"}
{"compound": "O=C(O)c1cn(-c2ccc(Cn3cncn3)cc2)c2c(OC(F)F)c(N3CC=C(c4ccccc4)CC3)c(F)cc2c1=O", "cells": "PBMC", "strain or isolate": "BaL", "value": "~0.015 µM"}
{"compound": "CC(C)CN(C[C@@H](O)[C@H](Cc1ccccc1)NC(=O)O[C@H]1CCOC1)S(=O)(=O)N1CCCCC1", "cells": "CEM", "strain or isolate": "IIIB", "value": "<1 µM"}
{"compound": "CN(C)c1ccc2c(COc3ccc(Cl)c(Oc4cc(Cl)cc(C#N)c4)c3)[nH]nc2n1", "cells": "MT-4", "value": "<20 µM"}
{"compound": "CC1(C)Oc2ccc3ccc(=O)oc3c2[C@@H](OC(=O)C23CCC(C)(C(=O)O2)C3(C)C)[C@H]1OC(=O)C12CCC(C)(C(=O)O1)C2(C)C", "cells": "MT-4", "strain or isolate": "HXB2", "value": "0.09 µM"}
{"compound": "CCN1c2ncc(CCOc3ccc(C(=O)NCC4(C(=O)O)CCCC4)cc3C)cc2C(=O)N(C)c2cccnc21", "cells": "C8166", "strain or isolate": "IIIB", "value": "<0.01 µM"}
{"compound": "COc1ccc(S(=O)(=O)N(CC2CCCC2)C[C@@H](O)[C@H](Cc2ccccc2)NC(=O)OCc2cccnc2)cc1", "cells": "CEM", "strain or isolate": "IIIB", "value": "<0.1 µM"}
{"compound": "COc1ccc2sc3c(c2c1)N(Cc1cccc(Cl)c1)CCNC3=O", "cells": "OM-10.1", "value": "<0.04 µM"}
{"compound": "CC(C)C1=C2[C@H]3CC[C@@H]4[C@@]5(C)CC[C@H](OC(=O)C6C[C@@H](C(=O)O)C6(C)C)C(C)(C)[C@@H]5CC[C@@]4(C)[C@]3(C)CC[C@@]2(NC(=O)C(C)(C)NC(=O)c2cnn3cccnc23)CC1=O", "cells": "MT-4", "strain or isolate": "NL4-3", "value": "<0.005 µM"}
{"compound": "C=C(COC)COC(=O)N[C@@H](Cc1ccccc1)[C@H](O)CN(CC(C)C)S(=O)(=O)c1ccc(NC(C)=O)cc1", "cells": "CEM", "strain or isolate": "IIIB", "value": "<1 µM"}
{"compound": "CCN1c2ncc(CCOc3ccc(-c4cc(C(=O)O)c[n+]([O-])c4)cc3C)cc2C(=O)N(C)c2cccnc21", "cells": "C8166", "strain or isolate": "IIIB", "value": ">0.05 µM"}
{"compound": "COc1ccc(S(=O)(=O)N(CC(C)C)C[C@@H](O)CCN(CC2CCCC2)S(=O)(=O)C2CCCS(=O)(=O)C2)cc1", "cells": "CEM", "strain or isolate": "IIIB", "value": "<1 µM"}
{"compound": "N#Cc1cc(Cl)cc(Oc2cc(Cl)cc(OCC(=O)Nc3ccc(C(N)=O)cc3Cl)c2)c1", "cells": "MT-4", "value": "<20 µM"}
{"compound": "CC(C)CN(C[C@@H](O)[C@H](Cc1ccccc1)NC(=O)OCc1ccccc1)S(=O)(=O)c1ccc(N)c([N+](=O)[O-])c1", "cells": "CEM", "strain or isolate": "IIIB", "value": "<10 µM"}
{"compound": "COc1ccc(S(=O)(=O)N(CC(C)C)C[C@@H](O)CCN(CC2CCCC2)S(=O)(=O)C2CCCCC2)cc1", "cells": "CEM", "strain or isolate": "IIIB", "value": "<1 µM"}
{"compound": "N#Cc1cc(Cl)cc(Oc2cc(OCc3[nH]nc4nc(N)ccc34)cc(F)c2Cl)c1", "cells": "MT-4", "value": "<20 µM"}
{"compound": "O=C1c2c(O)c(=O)n([C@@H]3CCCC[C@H]3O)c(=O)n2CCN1Cc1ccc(F)cc1", "cells": "MT-4", "value": "<10 µM"}
{"compound": "O=C(c1ccccc1)N(CCc1ccccc1)C[C@H](O)CN(CC1CCCC1)S(=O)(=O)Cc1cncs1", "cells": "CEM", "strain or isolate": "IIIB", "value": "<1 µM"}
{"compound": "O=C1c2c(O)c(=O)n(CC3CCCCC3)c(=S)n2CCN1Cc1ccc(F)cc1", "cells": "MT-4", "value": "<10 µM"}
{"compound": "CC(C)C1=C2[C@H]3CC[C@@H]4[C@@]5(C)CC[C@H](OC(=O)C6C[C@@H](C(=O)O)C6(C)C)C(C)(C)[C@@H]5CC[C@@]4(C)[C@]3(C)CC[C@@]2(NC(=O)C(C)(C)NC(=O)c2cc(C(C)C)[nH]n2)CC1=O", "cells": "MT-4", "strain or isolate": "NL4-3", "value": "<0.005 µM"}
{"compound": "CCCN1CCNC(=O)c2sc3ccc(OC)cc3c21", "cells": "OM-10.1", "value": "<0.08 µM"}
{"compound": "CC(C)CN(C[C@@H](O)[C@H](Cc1ccccc1)NC(=O)O[C@H]1CCOC1)S(=O)(=O)c1ccc(Cl)c(Cl)c1", "cells": "CEM", "strain or isolate": "IIIB", "value": "<1 µM"}
{"compound": "Nc1nc(=O)n([C@H]2CC[C@@H](CO)O2)cc1F", "cells": "MT-4", "strain or isolate": "RF", "value": "0.19 µM"}
{"compound": "O=C1NCCN(Cc2cccc(Cl)c2)c2c1sc1ccc([N+](=O)[O-])cc21", "cells": "OM-10.1", "value": "<0.08 µM"}
{"compound": "O=C1c2c(O)c(=O)n(C3CCS(=O)(=O)CC3)c(=O)n2CCN1Cc1ccc(F)cc1", "cells": "MT-4", "value": "<10 µM"}
{"compound": "CC(C)CN(CCC(O)Cc1ccccc1C(=O)NC(C)(C)C)S(=O)(=O)c1ccccc1", "cells": "CEM", "strain or isolate": "IIIB", "value": "<1 µM"}
{"compound": "Nc1nc(NC2CC2)c2ncn([C@H]3C=C[C@@H](CO)C3)c2n1", "cells": "MT-4", "strain or isolate": "NL4-3 WT", "value": "<2.3 µM"}
{"compound": "CCN1c2ncc(CCOc3ccc(C(=O)Nc4cccc(CC(=O)O)c4)cc3C)cc2C(=O)N(C)c2cccnc21", "cells": "C8166", "mutations": "RT-K103N Y181C", "value": "0.01–0.05 µM"}
{"compound": "CSc1ccc2oc3c(c2c1)N(Cc1ccccc1)CCNC3=O", "cells": "OM-10.1", "value": "<0.08 µM"}
{"compound": "Cc1cc(-c2ccc(CC(=O)O)cc2)ccc1OCCc1cnc2c(c1)C(=O)N(C)c1cccnc1N2", "cells": "C8166", "strain or isolate": "IIIB", "value": "<0.01 µM"}
{"compound": "CCn1cc(C(=O)O)c(=O)c2cc(F)c(N3CCN(c4ccccc4OC)CC3)c(OC(F)F)c21", "cells": "PBMC", "strain or isolate": "BaL", "value": "~0.6 µM"}
{"compound": "COc1ccc2sc3c(c2c1)N(Cc1ccccc1Cl)CCNC3=O", "cells": "OM-10.1", "value": "<0.04 µM"}
{"compound": "CCCOC(=O)N[C@@H](Cc1ccccc1)[C@H](O)CN(CC(C)C)S(=O)(=O)c1ccc(Cl)c(Cl)c1", "cells": "CEM", "strain or isolate": "IIIB", "value": "<10 µM"}
{"compound": "N#Cc1cc(Cl)cc(Oc2cc(F)c(Cl)c(OCc3[nH]nc4ncccc34)c2)c1", "cells": "MT-4", "value": "<20 µM"}
{"compound": "CC1(C)CC(n2c(=O)c(O)c3n(c2=O)CCN(Cc2ccc(F)cc2)C3=O)CCO1", "cells": "MT-4", "value": "<10 µM"}
{"compound": "COc1ccc(S(=O)(=O)N(CC(C)C)C[C@@H](O)CCN(CC2CCCC2)S(=O)(=O)CC2CCS(=O)(=O)CC2)cc1", "cells": "CEM", "strain or isolate": "IIIB", "value": "<1 µM"}
{"compound": "Nc1nc(=O)n([C@H]2C=C[C@@H](CO)O2)cc1F", "cells": "PBMC", "strain or isolate": "NL-XM WT", "value": "<1.7 µM"}
{"compound": "CCCCCCCCCCCCCCCCCCOC[C@H](COP(=O)(O)C(=O)O)OCC", "cells": "MT-2", "mutations": "RT-K65R", "strain or isolate": "LAI", "value": "1240 µM"}
{"compound": "CCN1c2ncc(CCOc3ccc(Nc4ccc(C(=O)O)cc4)cc3C)cc2C(=O)N(C)c2cccnc21", "cells": "C8166", "mutations": "RT-K103N Y181C", "value": "0.01–0.05 µM"}
{"compound": "O=C(c1ccccc1)N(CCc1ccccc1)C[C@H](O)CN(CC1CCCC1)S(=O)(=O)C1CCCS(=O)(=O)C1", "cells": "CEM", "strain or isolate": "IIIB", "value": "<1 µM"}
{"compound": "N#Cc1cc(Cl)cc(Oc2cc(OCC(=O)Nc3ccncc3C(F)(F)F)ccc2Cl)c1", "cells": "MT-4", "value": "<20 µM"}

The first 8 rows once more:

compound | cells | mutations | strain or isolate | value
CCN1c2ncc(CCOc3ccc(-c4cc(C(=O)O)ccc4C)cc3C)cc2C(=O)N(C)c2cccnc21 | C8166 | RT-K103N Y181C | - | 0.01–0.05 µM
COc1ccc2c(c1)C1=C(CC2)C(=O)NCCN1CCCC(C)C | OM-10.1 | - | - | 1.4 µM
N#Cc1cc(Cl)cc(Oc2cc(Cl)cc(OCC(=O)NCC3CCS(=O)(=O)C3)c2)c1 | MT-4 | - | - | <20 µM
CC(C)C1=C2[C@H]3CC[C@@H]4[C@@]5(C)CC[C@H](OC(=O)C6C[C@@H](C(=O)O)C6(C)C)C(C)(C)[C@@H]5CC[C@@]4(C)[C@]3(C)CC[C@@]2(NC(=O)C(C)(C)NC(=O)c2cnccn2)CC1=O | MT-4 | - | NL4-3 | <0.005 µM
C=C(C)CN1CCNC(=O)c2sc3ccc(F)cc3c21 | OM-10.1 | - | - | 0.005 µM
CC(C)C1=C2[C@H]3CC[C@@H]4[C@@]5(C)CC[C@H](OC(=O)C6C[C@@H](C(=O)O)C6(C)C)C(C)(C)[C@@H]5CC[C@@]4(C)[C@]3(C)CC[C@@]2(NC(=O)C(C)(C)NC(=O)c2nccn2C)CC1=O | MT-4 | V7A | NL4-3 | >0.05 µM
C=CCOC(=O)N[C@@H](Cc1ccccc1)[C@H](O)CN(CC(C)C)S(=O)(=O)c1ccc(F)cc1 | CEM | - | IIIB | <10 µM
N#Cc1cc(Cl)cc(Oc2cc(CCc3[nH]nc4ncccc34)ccc2Cl)c1 | MT-4 | - | - | <20 µM